EC50 data for 2 molecules are collected here from patent US20260250362A1 (published 2026).

Where only a bound is given, the exact number is not on record here.

Assay [1] deals with T1, unnamed (UniProt Q9E006 19-651; Q9E006 652-1138).
T1 Gn: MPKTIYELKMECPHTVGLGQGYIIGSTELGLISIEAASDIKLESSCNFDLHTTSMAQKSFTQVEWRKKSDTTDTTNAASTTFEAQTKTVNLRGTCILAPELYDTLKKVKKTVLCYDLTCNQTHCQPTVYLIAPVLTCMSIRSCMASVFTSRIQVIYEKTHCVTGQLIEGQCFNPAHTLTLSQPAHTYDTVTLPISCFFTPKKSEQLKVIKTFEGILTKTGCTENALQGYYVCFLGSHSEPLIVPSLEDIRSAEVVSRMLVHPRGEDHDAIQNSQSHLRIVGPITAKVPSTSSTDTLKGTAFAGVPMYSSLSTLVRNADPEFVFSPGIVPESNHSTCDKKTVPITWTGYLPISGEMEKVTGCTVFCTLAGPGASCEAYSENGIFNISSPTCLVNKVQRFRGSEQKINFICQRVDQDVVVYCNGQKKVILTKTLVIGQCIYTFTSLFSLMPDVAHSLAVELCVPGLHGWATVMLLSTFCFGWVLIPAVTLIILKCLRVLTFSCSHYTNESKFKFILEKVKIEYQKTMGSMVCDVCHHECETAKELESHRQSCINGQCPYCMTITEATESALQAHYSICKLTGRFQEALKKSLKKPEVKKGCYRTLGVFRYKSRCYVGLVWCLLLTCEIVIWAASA
T1 Gc: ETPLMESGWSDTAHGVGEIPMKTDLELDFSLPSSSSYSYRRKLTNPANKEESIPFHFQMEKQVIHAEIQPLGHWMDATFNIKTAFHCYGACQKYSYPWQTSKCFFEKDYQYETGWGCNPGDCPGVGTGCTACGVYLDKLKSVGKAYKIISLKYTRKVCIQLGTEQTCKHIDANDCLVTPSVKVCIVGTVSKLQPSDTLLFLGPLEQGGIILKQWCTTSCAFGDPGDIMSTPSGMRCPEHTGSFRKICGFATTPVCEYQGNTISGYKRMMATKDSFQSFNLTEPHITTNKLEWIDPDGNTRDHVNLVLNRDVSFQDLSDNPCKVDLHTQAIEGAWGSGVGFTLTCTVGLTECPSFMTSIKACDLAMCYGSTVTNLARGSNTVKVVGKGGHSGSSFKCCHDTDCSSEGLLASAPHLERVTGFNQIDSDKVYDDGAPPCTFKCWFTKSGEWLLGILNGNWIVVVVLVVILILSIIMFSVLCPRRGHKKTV
As to the kind of experiment: ELISA; heatmap bin. (In general: ELISA stands for enzyme-linked immunosorbent assay.)

Assay [2] has as its target T2, unnamed.
T2 chain 1: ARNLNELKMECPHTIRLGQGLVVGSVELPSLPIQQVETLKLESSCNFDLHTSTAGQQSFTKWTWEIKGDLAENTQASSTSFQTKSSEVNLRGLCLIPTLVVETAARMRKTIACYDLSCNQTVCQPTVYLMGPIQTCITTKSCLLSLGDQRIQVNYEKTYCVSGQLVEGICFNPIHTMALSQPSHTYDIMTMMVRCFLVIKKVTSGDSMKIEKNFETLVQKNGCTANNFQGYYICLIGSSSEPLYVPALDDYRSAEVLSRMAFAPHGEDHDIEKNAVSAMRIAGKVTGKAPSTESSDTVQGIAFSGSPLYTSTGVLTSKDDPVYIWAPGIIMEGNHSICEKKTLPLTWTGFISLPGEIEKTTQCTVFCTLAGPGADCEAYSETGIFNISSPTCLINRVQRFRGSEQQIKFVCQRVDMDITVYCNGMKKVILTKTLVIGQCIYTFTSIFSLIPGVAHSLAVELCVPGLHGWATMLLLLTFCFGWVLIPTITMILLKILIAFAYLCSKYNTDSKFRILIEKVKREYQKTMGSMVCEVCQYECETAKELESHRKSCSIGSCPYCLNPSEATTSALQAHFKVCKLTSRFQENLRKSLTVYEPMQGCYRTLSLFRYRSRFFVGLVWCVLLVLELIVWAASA
T2 chain 2: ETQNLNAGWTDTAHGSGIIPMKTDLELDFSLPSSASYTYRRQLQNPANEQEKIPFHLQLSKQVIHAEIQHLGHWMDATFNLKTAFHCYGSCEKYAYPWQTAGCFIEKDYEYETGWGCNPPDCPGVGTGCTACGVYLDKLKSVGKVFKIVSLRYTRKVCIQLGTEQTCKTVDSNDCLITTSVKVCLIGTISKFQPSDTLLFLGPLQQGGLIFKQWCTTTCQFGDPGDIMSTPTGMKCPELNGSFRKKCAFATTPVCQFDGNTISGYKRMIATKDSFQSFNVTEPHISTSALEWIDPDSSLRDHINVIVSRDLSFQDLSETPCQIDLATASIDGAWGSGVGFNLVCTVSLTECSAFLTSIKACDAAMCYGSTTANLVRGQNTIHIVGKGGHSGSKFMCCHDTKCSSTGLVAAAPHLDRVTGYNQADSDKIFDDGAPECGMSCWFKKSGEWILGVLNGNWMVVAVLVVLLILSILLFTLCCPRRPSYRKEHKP
As to the kind of experiment: ELISA; heatmap bin.

B1: ADI-42898 chimera HC^WT:LC^IGL with SHM Y49S (antibody, V domains shown)
VH: QVQLVESGGGVVQPGRSLRLSCAASGFTFSSYAMHWVRQAPGKGLEWVAVTWFDVSKKDYADSVKGRFTISRDNSKNTLYLQMNSLRAEDTAVYYCARNLIRYSGSYFPVHGMDVWGQGTTVTVSS
VL: not shown
The EC50 is the concentration giving half of the maximal effect. With B1, in the assay with unnamed [1], the concentration for a half-maximal effect (EC50) is more than 10 nM.

B2: ADI-42898 chimera HC^WT:LC^IGL (antibody, V domains shown)
VH: B1 VH
VL: not shown
For the molecule B2, the concentration for a half-maximal effect (EC50) with unnamed [2] is more than 10 nM.
